Results of unrelated studies side by side (data: NIAID ChemDB).

All rows: cytotoxicity tests; cells: HepG2 2.2.15; measure: CC50

CCn is the concentration with n% toxicity to the cells. An empty or dashed field is not shown. Lines come from different laboratories, so protocols vary.

| smiles | read by | value |
|---|---|---|
| Cc1ccc(NCc2nnc(SCC(=O)NN=CC(O)C(O)C(O)C(O)CO)n2-c2ccccc2)cc1 |  | >100 µM |
| COC1OC(Cn2c(C)cc(=O)nc2SC)C(O)C1O |  | >100 µM |
| COC(=O)[C@H](Cc1ccccc1)NP(=O)(OC[C@H]1C=C[C@@H](n2ccc3c(N)ncnc32)C1)Oc1ccccc1 |  | >36 µM |
| CCCCCCCCCCCCC/C=C/C=C/C(CCCCCC)ON1C=CC=CN1O |  | >50 µg/mL |
| COC(=O)[C@H](C)NP(=O)(OC[C@H]1C=C[C@@H](n2ccc3c(N)ncnc32)C1)Oc1ccccc1 |  | 230 µM |
| O=C1NC(=O)/C(=C/N2CCN(C(c3ccccc3)c3ccc(Cl)cc3)CC2)S1 |  | 54.02 µM |
| Fc1ccc(NCc2nc(=S)[nH][nH]2)cc1 |  | >100 µM |
| CNc1ncnc2c1ncn2[C@H]1CC(F)[C@@H](CO)O1 |  | >200 µM |
| O=c1cc(Sc2ccc(F)cc2)[nH]c(=O)[nH]1 |  | >100 µM |
| Nc1ncnc2c1ncn2[C@@H]1C[C@@H](F)[C@H](CO)O1 |  | 187 µM |
| COC1OC(CSc2nccc(=O)[nH]2)C(O)C1O |  | >100 µM |
| Nc1ncnc2c1ccn2[C@H]1C=C[C@@H](CO)C1 |  | >200 µM |
| C/C(=N\N=C(N)N)c1cc(NC(=O)CCCCCCCCC(=O)Nc2cc(/C(C)=N/N=C(N)N)cc(/C(C)=N/N=C(N)N)c2)cc(/C(C)=N/N=C(N)N)c1 |  | >20 µM |
| N#Cc1c(-c2ccccc2)c(-c2ccccc2)nn(CC(O)CO)c1=O |  | >10 µM |
| O=C(CNc1ccc(F)cc1)NNC(=S)Nc1ccccc1 |  | >100 µM |
| C=CCn1c(=O)c(-c2cc(COC(C)=O)n(-c3ccccc3)n2)nc2ccccc21 | MTT | >100 µM |
| c1ccc(NCc2nnc(Sc3ccccc3)o2)cc1 |  | >100 µM |
| Nc1ncnc2c1nc(I)n2[C@H]1CC[C@@H](CO)C1 | visual reading | 9 µM |
| COC1OC(Cn2cc(C)c(=O)nc2SC)C(O)C1O |  | >100 µM |
| Cc1ccc(NCC(=O)NNC(=S)Nc2ccccc2)cc1 |  | >100 µM |
| Nc1ncnc2c1ncn2[C@H]1CC[C@@H](CO)C1 | visual reading | >200 µM |
| Cc1ccc(NCc2nnc(SCC(=O)NN)n2-c2ccccc2)cc1 |  | >100 µM |
| C[C@@H]1CO[C@@]2(C[C@@H]1OC(=O)c1ccc(O)cc1)O[C@]1(O)C[C@@H](C(=O)O[C@@H]3C[C@H](O)[C@@H](O)[C@H](O)[C@H]3OC3O[C@H](CO)[C@@H](O)[C@H](O)[C@H]3OC3O[C@H](CO)[C@@H](O)[C@H](O)[C@H]3O)C[C@H](O)[C@]1(O)[C@H]2O | MTT | 279.7 µM |
| CC1=C[C@H](O)CC(C)(C)[C@H]1/C=C/C(C)=C/C=C/C(C)=C/C=C/C=C(C)/C=C/C=C(C)/C=C/C1=C(C)C[C@@H](C)CC1(C)C | MTT | >40 µg/mL |
| CCCc1cc(=O)nc(SC)n1CC1OC(OC)C(O)C1O |  | >100 µM |
| COC(=O)C(C)(C)NP(=O)(OC[C@H]1O[C@@H](n2cnc3c(N)ncnc32)CC1F)Oc1ccccc1 |  | 3.2 µM |
| Cc1cccc(C(=O)Nc2ncc(Br)s2)c1O | neutral red | 100 µM |
| CCc1c(Sc2ccc(C)cc2)[nH]c(=O)[nH]c1=O |  | 92 µM |
| CNc1nc2c(N)ncnc2n1[C@H]1CC[C@@H](CO)C1 | visual reading | >200 µM |
| CCc1c(Sc2ccc(F)cc2)[nH]c(=O)[nH]c1=O |  | >100 µM |
| C[C@@H]1CO[C@@]2(C[C@@H]1OC(=O)c1ccc(O)cc1)O[C@@H]1C[C@@H](C(=O)O[C@@H]3C[C@H](O)[C@@H](O)[C@H](O)[C@H]3OC3O[C@H](CO)[C@@H](O)[C@H](O)[C@H]3O)C[C@H](O)[C@@H]1[C@H]2O | MTT | 2.3 µM |
| O=c1c2ccccc2cnn1CC(O)CO |  | >10 µM |
| Cc1ccc(NCc2nnc(Nc3ccccc3)s2)cc1 |  | >100 µM |
| Nc1ncnc2c1nc(-c1ccccc1)n2[C@H]1CC[C@@H](CO)C1 | visual reading | >200 µM |
| O=c1c(-c2cc(CO)n(-c3ccc(Br)cc3)n2)nc2ccccc2n1CC(Br)CBr | MTT | >100 µM |
| C[C@@H]1CO[C@@]2(C[C@@H]1OC(=O)c1ccccc1)O[C@@H]1C[C@@H](C(=O)O[C@@H]3C[C@H](O)[C@@H](O)[C@H](O)[C@H]3OC3O[C@H](CO)[C@@H](O)[C@H](O)[C@H]3O)C[C@H](O)[C@]1(O)[C@H]2O | MTT | 1.5 µM |
| Nc1ncnc2c1ccn2[C@H]1CC(F)[C@@H](CO)O1 |  | >200 µM |
| S=c1nc(CNc2ccccc2)[nH][nH]1 |  | >100 µM |